Data taken from the supplement of paper PMC9931576.
Where a chain is given by its changes, count along the chain named. Human monoclonal antibodies against the spike receptor-binding domain (heavy:light variable regions). IC50 against pseudoviruses bearing the spike of naturally observed variants; lower = stronger; >10 µg/ml means not reached at the top dose. No active / inactive call. The stated detection limit is 0.0005 µg/ml; values near or below 0.001 µg/ml lie at the floor of the assay.

B1: BD56-554 (protein)
chain 1: QITLKESGPTLVKPTQTLTLTCTFSGFSLTNSGEGVAWIRQPPGKALEWLALIYWDNDKRYSPSLKSRLTITRDTSKNQVVFRMTNMDPVDTATYYCAQTPGIDVMFESWGQGTLVTVSS
chain 2: QSALTQPASVSGSPGQSITISCTGTSTDLGSFNYVSWYLQHPGKAPKLMIYDVTNRPSGVSNRFSGSKSGNTASLTISGLQAQDEGDYYCSSYTTSSVVFGGGTKLTVL
B2: BD56-557 (protein)
chain 1: QITLKESGPTLVKPTQTLTLTCTFSGFSLNTRGVCVGWIRQPPGKALEWLALICWDDDRRYSPSLKNRLTITKDTSKNHIVLTMTNMDPVDTAIYFCAYSPPDTSGWYGESIDYWGQGTLVTVSS
chain 2: SYELTQPPSVSVSPGQTARITCSGHAFPNQYAYWYQQKPGQAPVLVIYRDTERPSGIPGRFSGSSSGRTVTLTISGVQAEDEGDYYCQSADSSGVVFGGGTKLTVL
B3: BD56-558 (protein)
chain 1: QLQLQESGPGLVKPSETLSLTCTVSGGSISRSSHYWGWIRQPPGKGLEWIGSIYYSRRSYYNPSLKSRVSISVDTSNNQFSLTLTSVTAADRAVYYCARRGGVSGWGGDDWYFDVWGRGTLVTVSS
chain 2: QSVLTQPPSVSGAPGQRVTISCTGSSSNIGTGYDVHWYQQLPGTAPKVLIYGNNNRPSGVPDRFSGSKSGTSASLAITGLQAEDEADYYCQSYDSSLSGWVFGGGTKLAVL
B4: BD56-561 (protein)
chain 1: QVQLVESGGGVVQPGRSLRLSCAASGFTFSPYGMHWVRQAPGKGLEWVAVIWSDGSNQYYADSVKGRFTISRDNSKNTLYLQLNRLRAEDTAVYFCAREDSFGYSHGDFYYYGLDVWGQGTTVTVSS
chain 2: QSVLTQPPSVSAAPGQKVTISCSGSTSNIGSNFVSWYQQLPGTPPKFLIFDNNKRPSGIPDRFSASKSATSATLAITGLQTGDEADYYCGTWDTRLSVWVFGGGTKLTVL
B5: BD56-564 (protein)
chain 1: QVQLVESGGGVVQPGRSLRLSCAASGFTFSTYAMHWVRQAPGKGLEWVAVISSDGSNKYYADSVKGRFTISRDNPKNTLFLQMNTLRAEDTSIYYCAREGGYCSGGDCYSGLGWFDPWGQGTLVTVSS
chain 2: DIQMTQSPSSLSASAGDRVTITCRASQSIISYLNWYQQKPGKAPKLLIHAASSLQSGVPSRFSGSGSGTDFTLTISSLQPEDFATYYCQQSYITPPAFGQGTRLEIK
B6: BD56-566 (protein)
chain 1: B3 chain 1 with R31S, H34Y, E48D, R58K, S59T, S70T, N77K, V115L
chain 2: B3 chain 2 with T31A, Q40L, T44R, A45V, T78I, G99T, V101M, A109T

target: SARS-CoV-2 Omicron BA.1 spike pseudovirus; experiment: pseudovirus neutralization IC50; higher = weaker neutralization
Protocol: (§1)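 Single-round VSV luciferase pseudovirus mixed with antibody dilutions for 1 h and put on Huh-7 cells for about a day; IC50 from the dose curve.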

Compared with B1, B2 is higher in “pseudovirus neutralization IC50” value: 0.00979 µg/mL for the first, > 10 µg/mL for the second.

Compared with B3, B4 is lower in “pseudovirus neutralization IC50” value: > 10 µg/mL for the first, 1.43 µg/mL for the second.

Going from B5 to B6, the “pseudovirus neutralization IC50” value rises from 0.00344 µg/mL to 2.46 µg/mL (720-fold).

target: SARS-CoV-2 Omicron BA.2 spike pseudovirus; experiment: as above
Protocol: as §1

First: B1
Second: B2
The “pseudovirus neutralization IC50” value of the first is lower: 0.000857 µg/mL for the first, > 10 µg/mL for the second.

Going from B3 to B4, the “pseudovirus neutralization IC50” value rises from 0.368 µg/mL to 1.24 µg/mL (3.4-fold).

Going from B5 to B6, the “pseudovirus neutralization IC50” value rises from 0.00176 µg/mL to 0.332 µg/mL (190-fold).

target: SARS-CoV-2 Omicron BA.2.75 spike pseudovirus; experiment: as above
Protocol: as §1

Compared with B1, B2 is higher in “pseudovirus neutralization IC50” value: 0.0128 µg/mL for the first, > 10 µg/mL for the second.

Going from B3 to B4, the “pseudovirus neutralization IC50” value falls from > 10 µg/mL to 1.5 µg/mL.

Compared with B5, B6 is 1200-fold higher in “pseudovirus neutralization IC50” value: 0.00169 µg/mL for the first, 2.11 µg/mL for the second.

target: SARS-CoV-2 Omicron BA.5 spike pseudovirus; experiment: as above
Protocol: as §1

Going from B1 to B2, the “pseudovirus neutralization IC50” value rises from 0.00146 µg/mL to > 10 µg/mL.

Going from B3 to B4, the “pseudovirus neutralization IC50” value falls from > 10 µg/mL to 3.08 µg/mL.

Going from B5 to B6, the “pseudovirus neutralization IC50” value rises from 0.248 µg/mL to > 10 µg/mL.

target: SARS-CoV-2 Omicron BQ.1.1 spike pseudovirus; experiment: as above
Protocol: as §1

B1 and B2 cannot be ordered by “pseudovirus neutralization IC50” value: > 10 µg/mL for the first, > 10 µg/mL for the second.

First: B3
Second: B4
The “pseudovirus neutralization IC50” value of the first is higher: > 10 µg/mL for the first, 4.53 µg/mL for the second.

Compared with B5, B6 is higher in “pseudovirus neutralization IC50” value: 0.671 µg/mL for the first, > 10 µg/mL for the second.

target: SARS-CoV-2 Omicron XBB spike pseudovirus; experiment: as above
Protocol: as §1

B1 and B2 cannot be ordered by “pseudovirus neutralization IC50” value: > 10 µg/mL for the first, > 10 µg/mL for the second.

Going from B3 to B4, the “pseudovirus neutralization IC50” value falls from > 10 µg/mL to 3.68 µg/mL.

First: B5
Second: B6
The “pseudovirus neutralization IC50” value of the first is lower: 2.23 µg/mL for the first, > 10 µg/mL for the second.

target: SARS-CoV-2 early D614G spike pseudovirus; experiment: as above
Protocol: as §1

First: B1
Second: B2
The “pseudovirus neutralization IC50” value of the first is 270-fold lower: 0.00163 µg/mL for the first, 0.432 µg/mL for the second.

Going from B3 to B4, the “pseudovirus neutralization IC50” value rises from 0.0059 µg/mL to 1.55 µg/mL (260-fold).

B5 and B6 are within 1.5-fold of each other in “pseudovirus neutralization IC50” value: 0.00973 µg/mL for the first, 0.00889 µg/mL for the second.
